Anti-infective test results gathered from many reports (values: NIAID ChemDB through PubChem).

Common to all: cytotoxicity tests; cell line: CEM; endpoint: CC50

Lines come from different laboratories, so protocols vary. Blank or dashed fields: not listed here. CCn is the concentration with n% toxicity to the cells.

structure | method | value
CNNC(=NS(=O)(=O)c1cc(C#N)c(NNC)cc1S)NNC | - | 110 µM
O=C(Nc1ccccc1C(=O)N[C@@H](Cc1ccccc1)C[C@H](O)[C@H](Cc1ccccc1)NC(=O)OCc1cncs1)OCc1ccccn1 | - | >0.2 µM
CC(n1ccc(N)nc1=O)C1(COCP(=O)(O)O)CC1 | - | >100 µM
O=C(Nc1ccccc1C(=O)N[C@@H](Cc1ccccc1)[C@H](O)[C@H](O)[C@H](Cc1ccccc1)NC(=O)c1ccno1)OCc1ccccn1 | - | >0.8 µM
CCOC(=O)c1nnn([C@@H]2O[C@H](CO[Si](C)(C)C(C)(C)C)C3(OS(=O)(=O)C=C3N)[C@H]2O[Si](C)(C)C(C)(C)C)c1C(=O)OCC | - | >1.6 µM
Cc1cc(S(=O)(=O)Nc2nc(N)nc(N(C)C)n2)c(S)cc1Cl | - | >200 µM
NC(=O)c1ncn([C@@H]2O[C@H](CO)[C@@H](O)[C@H]2O)n1 | - | >300 µM
Cc1cn([C@H]2C[C@H](N=[N+]=[N-])[C@@H](CO)O2)c(=O)[nH]c1=O | - | >0.003 µM
COc1cc(C2C(Cl)C(=O)N2NC(=O)c2ccccc2O)ccc1O | - | >27.5 µM
CC(C)(C)OC(=O)N[C@@H](Cc1ccccc1)C[C@H](O)[C@H](Cc1ccccc1)NC(=O)c1ccccc1NC(=O)OCc1ccccn1 | - | >0.49 µM
C=C(COCP(=O)(O)O)C(C)n1ccc(N)nc1=O | - | >100 µM
Cc1cc(S(=O)(=O)Nc2nnc3c4scc(C)c4ncn23)c(S)cc1Cl | - | 126 µM
COc1ccc(/C=C2/C(=O)N(C(=O)c3ccccc3O)N=C2C)cc1 | - | 0.053 µM
CC(n1cnc2c(=O)[nH]c(N)nc21)C1(COCP(=O)(O)O)CC1 | - | 98 µM
CC(C)(C)[Si](C)(C)OC[C@H]1O[C@@H](n2nncc2CBr)[C@H](O[Si](C)(C)C(C)(C)C)C12OS(=O)(=O)C=C2N | - | >1.3 µM
CCOC(=O)NN(C(=O)OCC)C(=C(C1CCCCC1)N1CCOCC1)N(NC(=O)OCC)C(=O)OCC | - | 200 µM
CC1=NN(C(=O)c2ccccc2O)C(=O)/C1=C/c1ccc([N+](=O)[O-])cc1 | - | 0.091 µM
O=C(Nc1ccccc1C(=O)N[C@@H](Cc1ccccc1)[C@H](O)[C@H](O)[C@H](Cc1ccccc1)NC(=O)OC1CCOC1)OCc1ccccn1 | - | >0.06 µM
Nc1ncnc2c1ncn2[C@H]1CC[C@@H](CO)O1 | - | >250 µM
CCc1c(Sc2ccccn2)n(COCc2ccccc2)c(=O)[nH]c1=O | - | 44 µM
Cc1cn([C@H]2C[C@H](N=[N+]=[N-])[C@@H](CO)O2)c(=O)[nH]c1=O | - | 13 µM
CNC(=O)c1cc(S(=O)(=O)Nc2nncn2CC(C)C)c(S)cc1Cl | - | >200 µM
Nc1nc2c(ncn2[C@H]2OC[C@@](F)(CCP(=O)(O)O)[C@H]2F)c(=O)[nH]1 | MTT | >100 µM
O=C(NN1C(=O)C(Cl)C1c1ccc([N+](=O)[O-])cc1)c1ccccc1O | - | >10 µM
COC(=O)[C@H](C)NP(=O)(OC[C@@H]1CC[C@H](n2ccc(N)nc2=O)O1)Oc1ccccc1 | - | 114 µM
O=C1CN=C(c2ccc[nH]2)c2cc(Cl)ccc2N1 | - | 1.18 µg/mL
Cc1cc(=O)oc2cc(O)c(O)cc12 | cell count | ≥100 µg/mL
CC(C)(C)[Si](C)(C)OC[C@H]1O[C@@H](n2cc(C(N)=O)nn2)[C@H](O[Si](C)(C)C(C)(C)C)C12OS(=O)(=O)C=C2N | - | >0.9 µM
Nc1ncnc2c1ncn2[C@H]1OC[C@@](F)(CCP(=O)(O)O)[C@H]1F | MTT | >100 µM
CC(C)(C)OC(=O)N[C@@H](Cc1ccccc1)[C@@H](O)[C@@H](O)[C@H](Cc1ccccc1)NC(=O)c1ccccc1NC(=O)OCc1ccccn1 | - | >0.4 µM
COC(=O)[C@H](C)NP(=O)(OC[C@@H]1O[C@H](n2ccc(N)nc2=O)CS1)Oc1ccccc1 | - | >100 µM
C=C(COCP(=O)(O)O)C(C)n1ccc(=O)[nH]c1=O | - | >100 µM
Cc1cn([C@H]2C[C@H](N=[N+]=[N-])[C@@H](CO)O2)c(=O)[nH]c1=O | - | >100 µM
Cc1ccc(Nc2nc(NS(=O)(=O)c3cc(C)c(Cl)cc3S)n[nH]2)cc1 | - | >200 µM
COC1(OC)CCCCC2c3cccc(OC(C)=O)c3C21OC(C)=O | - | 26 µM
Cc1cc(S(=O)(=O)Nc2n[nH]c(Nc3ccc(Cl)cc3)n2)c(S)cc1Cl | - | >200 µM
CC1=C(C(=O)Nc2ccc(Cl)c(C(=O)OC(C)C)c2)SCCO1 | - | 2 µM
CNC[C@H](O)c1ccc(O)c(O)c1 | cell count | 100 µg/mL
Cc1cc(S(=O)(=O)Nc2n[nH]c(Nc3ccccc3)n2)c(SSc2cc(Cl)c(C)cc2S(=O)(=O)Nc2n[nH]c(Nc3ccccc3)n2)cc1Cl | - | 102.3 µM
Nc1nc2c(ncn2[C@H]2OC[C@@](F)(C=CP(=O)(O)O)[C@H]2F)c(=O)[nH]1 | MTT | >100 µM
Nc1ccn([C@H]2CC[C@@H](CO)O2)c(=O)n1 | - | 8 µM
NCC(=O)c1ccc(O)c(O)c1 | cell count | >100 µg/mL
NNC(=O)c1ccccc1SSc1ccccc1C(=O)NN | - | 4.97 µM
O=C(O)/C=C/c1ccc(O)c(O)c1 | cell count | >100 µg/mL
COCc1cn([C@@H]2O[C@H](CO[Si](C)(C)C(C)(C)C)C3(OS(=O)(=O)C=C3N)[C@H]2O[Si](C)(C)C(C)(C)C)nn1 | - | >2.3 µM

The first 2 rows once more:

structure,method,value
CNNC(=NS(=O)(=O)c1cc(C#N)c(NNC)cc1S)NNC,-,110 µM
O=C(Nc1ccccc1C(=O)N[C@@H](Cc1ccccc1)C[C@H](O)[C@H](Cc1ccccc1)NC(=O)OCc1cncs1)OCc1ccccn1,-,>0.2 µM